Anti-infective test results gathered from many reports (values: NIAID ChemDB through PubChem).

Shared fields: whole-cell or culture tests; agent: Candida tropicalis; read by: broth dilution; endpoint: MIC

Lines come from different laboratories, so protocols vary.

structure,strain,value
CCC(C)CC(C)CCCCCCCCC(=O)N[C@H]1C[C@@H](O)[C@H](NCCN)NC(=O)[C@@H]2[C@@H](O)CCN2C(=O)[C@H]([C@H](O)CCN)NC(=O)[C@H]([C@H](O)[C@@H](O)c2ccc(O)cc2)NC(=O)[C@@H]2C[C@@H](O)CN2C(=O)[C@H]([C@@H](C)O)NC1=O,8663,4 µg/mL
CC1CC2=C(O1)c1ccccc1C(=O)C2=O,Clinical isolate,18.7 µg/mL
O=C1c2ccccc2CC1Cn1ccnc1,RTCC 1095,>64 µg/mL
CCCCCCCCCCCCCCCC(=O)NC(CCCCN)C(=O)NC(CCCCN)C(N)=O,4851,2 µg/mL
C[C@@H](c1ncncc1F)[C@](O)(Cn1cncn1)c1ccc(F)cc1F,8684,0.015 µg/mL
Nc1scc2c1c(=O)oc1ccccc12,ATCC 750,16 µg/mL
CC(=O)N1CCN(c2ccc(OC[C@H]3CO[C@](Cn4ccnc4)(c4ccc(Cl)cc4Cl)O3)cc2)CC1,ATCC 66029,3 µg/mL
CCOc1ccc2nc3cc(N=C4NC(=O)/C(=C\C=C\c5ccc([N+](=O)[O-])o5)S4)ccc3c(N)c2c1,ATCC 8302,500 µg/mL
O=C(CCn1ccnc1)c1cccc(C(O)c2ccc(Cl)c(Cl)c2)c1,RTCC 1095,32 µg/mL
Cc1ccc(N/N=c2/sc3nnc(-c4ccncc4)n3nc2C)cc1,ATCC 66029,>100 µg/mL
OC(CCn1ccnc1)c1ccc(Br)cc1,RTCC 1065,>64 µg/mL
CC(C)(O)c1cn(-c2ccc(Cl)cc2)nn1,URM 933,128 µg/mL
OC(CCn1ccnc1)c1cccc(C(O)c2ccc(Br)cc2)c1,RTCC 1065,>64 µg/mL
COC(=O)c1cc(O)c(O)c2oc3cc(OC)cc(O)c3c(=O)c12,ATCC 750,31.25 µg/mL
O=C(CCn1ccnc1)c1cccc(O)c1,RTCC 1065,>64 µg/mL
CCCCCCCCCCCCCCCCn1cc[n+](C)c1,94P,0.014 µg/mL
Cc1nn2c(-c3ccncc3)nnc2s/c1=N/Nc1ccccc1,ATCC 66029,25 µg/mL
O=C(CCn1ccnc1)c1ccc(Br)cc1,RTCC 1095,>64 µg/mL

A second listing of 2 rows from above:

structure | strain | value
CC(=O)N1CCN(c2ccc(OC[C@H]3CO[C@](Cn4ccnc4)(c4ccc(Cl)cc4Cl)O3)cc2)CC1 | ATCC 66029 | 3 µg/mL
Cc1nn2c(-c3ccncc3)nnc2s/c1=N/Nc1ccccc1 | ATCC 66029 | 25 µg/mL